Reference: article PMC6669600 (Viruses, 2019)

What was measured:
[1] = tested on: HIV-1HXB2 Env-mediated cell-cell fusion; format: cell-based; conditions: TZM-bl target, HL2/3 effector, 6 h coculture at 37 C, luciferase; triplicate, repeated three times, mean ± SD; SD; read-out: IC50, inhibition of HIV-1HXB2 Env-mediated cell-cell fusion
[2] = biological target: N36 (gp41 NHR-derived target mimic peptide) (Human immunodeficiency virus type 1 group M subtype B, UniProt P04578); test: CD spectroscopy of inhibitor complexed with N36; format: binding, HIV-1; conditions: thermal denaturation of complex at 222 nm, 20-98 C, 2 C/min, each peptide 10 μM in PBS; repeated two times, representative data

CC[C@H](C)[C@H](NC(=O)[C@H](CC(C)C)NC(=O)[C@H](CCC(=O)O)NC(=O)[C@H](CCC(=O)O)NC(=O)[C@@H](NC(=O)[C@H](CCCCN)NC(=O)[C@H](CCCCN)NC(=O)[C@@H](NC(=O)[C@H](Cc1ccc(O)cc1)NC(=O)[C@H](CCC(=O)O)NC(=O)[C@H](CCC(=O)O)NC(=O)[C@@H](NC(=O)[C@H](CCCCN)NC(=O)[C@H](CCCCN)NC(=O)[C@H](CC(=O)O)NC(=O)[C@H](Cc1c[nH]c2ccccc12)NC(=O)[C@H](CCC(=O)O)NC(=O)[C@H](CCC(=O)O)NC(=O)[C@H](Cc1c[nH]c2ccccc12)NC(=O)[C@@H](NC(=O)[C@H](CCSC)NC(C)=O)[C@@H](C)O)[C@@H](C)CC)[C@@H](C)O)[C@@H](C)CC)C(=O)N[C@@H](CCCCN)C(=O)N[C@@H](CCCCN)C(=O)N[C@@H](CO)C(=O)N[C@@H](CCC(=O)O)C(=O)N[C@@H](CCC(=O)O)C(=O)N[C@@H](CCC(N)=O)C(N)=O [MT-SC25EK]
IC50 [1]: 2 ± 0.9 nM
CD data (with N36) Tm (°C) [2]: 69.9 °C

CC[C@H](C)[C@H](NC(=O)[C@H](CC(C)C)NC(=O)[C@H](CCC(=O)O)NC(=O)[C@H](CCC(=O)O)NC(=O)[C@@H](NC(=O)[C@H](CCCCN)NC(=O)[C@H](CCCCN)NC(=O)[C@@H](NC(=O)[C@H](Cc1ccc(O)cc1)NC(=O)[C@H](CCC(=O)O)NC(=O)[C@H](CCC(=O)O)NC(=O)[C@@H](NC(=O)[C@H](CCCCN)NC(=O)[C@H](CCCCN)NC(=O)[C@H](CC(=O)O)NC(=O)[C@H](Cc1c[nH]c2ccccc12)NC(=O)[C@H](CCC(=O)O)NC(=O)[C@H](CCC(=O)O)NC(=O)[C@H](Cc1c[nH]c2ccccc12)NC(=O)[C@@H](NC(=O)[C@H](CCSC)NC(C)=O)[C@@H](C)O)[C@@H](C)CC)[C@@H](C)O)[C@@H](C)CC)C(=O)N[C@@H](CCCCN)C(=O)N[C@@H](CCCCN)C(=O)N[C@@H](CO)C(=O)N[C@@H](CCC(=O)O)C(=O)N[C@@H](CCC(=O)O)C(=O)N[C@@H](CCC(N)=O)C(=O)N[C@@H](CCC(N)=O)C(N)=O [MT-SC26EK]
IC50 [1]: 1.1 ± 0.2 nM
CD data (with N36) Tm (°C) [2]: 70.2 °C

CC[C@H](C)[C@H](NC(=O)[C@H](CC(C)C)NC(=O)[C@H](CCC(=O)O)NC(=O)[C@H](CCC(=O)O)NC(=O)[C@@H](NC(=O)[C@H](CCCCN)NC(=O)[C@H](CCCCN)NC(=O)[C@@H](NC(=O)[C@H](Cc1ccc(O)cc1)NC(=O)[C@H](CCC(=O)O)NC(=O)[C@H](CCC(=O)O)NC(=O)[C@@H](NC(=O)[C@H](CCCCN)NC(=O)[C@H](CCCCN)NC(=O)[C@H](CC(=O)O)NC(=O)[C@H](Cc1c[nH]c2ccccc12)NC(=O)[C@H](CCC(=O)O)NC(=O)[C@H](CCC(=O)O)NC(=O)[C@H](Cc1c[nH]c2ccccc12)NC(=O)[C@@H](NC(=O)[C@H](CCSC)NC(C)=O)[C@@H](C)O)[C@@H](C)CC)[C@@H](C)O)[C@@H](C)CC)C(=O)N[C@@H](CCCCN)C(=O)N[C@@H](CCCCN)C(=O)N[C@@H](CO)C(=O)N[C@@H](CCC(=O)O)C(=O)N[C@@H](CCC(=O)O)C(=O)N[C@@H](CCC(N)=O)C(=O)N[C@@H](CCC(N)=O)C(=O)N[C@@H](CCCCN)C(N)=O [MT-SC27EK]
IC50 [1]: 1.4 ± 0.6 nM
CD data (with N36) Tm (°C) [2]: 70 °C

CC[C@H](C)[C@H](NC(=O)[C@H](CC(C)C)NC(=O)[C@H](CCC(=O)O)NC(=O)[C@H](CCC(=O)O)NC(=O)[C@@H](NC(=O)[C@H](CCCCN)NC(=O)[C@H](CCCCN)NC(=O)[C@@H](NC(=O)[C@H](Cc1ccc(O)cc1)NC(=O)[C@H](CCC(=O)O)NC(=O)[C@H](CCC(=O)O)NC(=O)[C@@H](NC(=O)[C@H](CCCCN)NC(=O)[C@H](CCCCN)NC(=O)[C@H](CC(=O)O)NC(=O)[C@H](Cc1c[nH]c2ccccc12)NC(=O)[C@H](CCC(=O)O)NC(=O)[C@H](CCC(=O)O)NC(=O)[C@H](Cc1c[nH]c2ccccc12)NC(=O)[C@@H](NC(=O)[C@H](CCSC)NC(C)=O)[C@@H](C)O)[C@@H](C)CC)[C@@H](C)O)[C@@H](C)CC)C(=O)N[C@@H](CCCCN)C(=O)N[C@@H](CCCCN)C(=O)N[C@@H](CO)C(=O)N[C@@H](CCC(=O)O)C(=O)N[C@@H](CCC(=O)O)C(=O)N[C@@H](CCC(N)=O)C(=O)N[C@@H](CCC(N)=O)C(=O)N[C@@H](CCCCN)C(=O)N[C@@H](CCCCN)C(N)=O [MT-SC28EK]
IC50 [1]: 1.2 ± 0.6 nM
CD data (with N36) Tm (°C) [2]: 69.1 °C

CC[C@H](C)[C@H](NC(=O)[C@H](CC(C)C)NC(=O)[C@H](CCC(=O)O)NC(=O)[C@H](CCC(=O)O)NC(=O)[C@@H](NC(=O)[C@H](CCCCN)NC(=O)[C@H](CCCCN)NC(=O)[C@@H](NC(=O)[C@H](Cc1ccc(O)cc1)NC(=O)[C@H](CCC(=O)O)NC(=O)[C@H](CCC(=O)O)NC(=O)[C@@H](NC(=O)[C@H](CCCCN)NC(=O)[C@H](CCCCN)NC(=O)[C@H](CC(=O)O)NC(=O)[C@H](Cc1c[nH]c2ccccc12)NC(=O)[C@H](CCC(=O)O)NC(=O)[C@H](CCC(=O)O)NC(=O)[C@H](Cc1c[nH]c2ccccc12)NC(=O)[C@@H](NC(=O)[C@H](CCSC)NC(C)=O)[C@@H](C)O)[C@@H](C)CC)[C@@H](C)O)[C@@H](C)CC)C(=O)N[C@@H](CCCCN)C(=O)N[C@@H](CCCCN)C(=O)N[C@@H](CO)C(=O)N[C@@H](CCC(=O)O)C(=O)N[C@@H](CCC(=O)O)C(=O)N[C@@H](CCC(N)=O)C(=O)N[C@@H](CCC(N)=O)C(=O)N[C@@H](CCCCN)C(=O)N[C@@H](CCCCN)C(=O)N[C@@H](CC(N)=O)C(N)=O [MT-SC29EK]
IC50 [1]: 1.1 ± 0.2 nM
CD data (with N36) Tm (°C) [2]: 73 °C

CC[C@H](C)[C@H](NC(=O)[C@H](CC(C)C)NC(=O)[C@H](CCC(=O)O)NC(=O)[C@H](CCC(=O)O)NC(=O)[C@@H](NC(=O)[C@H](CCCCN)NC(=O)[C@H](CCCCN)NC(=O)[C@@H](NC(=O)[C@H](Cc1ccc(O)cc1)NC(=O)[C@H](CCC(=O)O)NC(=O)[C@H](CCC(=O)O)NC(=O)[C@@H](NC(=O)[C@H](CCCCN)NC(=O)[C@H](CCCCN)NC(=O)[C@H](CC(=O)O)NC(=O)[C@H](Cc1c[nH]c2ccccc12)NC(=O)[C@H](CCC(=O)O)NC(=O)[C@H](CCC(=O)O)NC(=O)[C@H](Cc1c[nH]c2ccccc12)NC(=O)[C@@H](NC(=O)[C@H](CCSC)NC(C)=O)[C@@H](C)O)[C@@H](C)CC)[C@@H](C)O)[C@@H](C)CC)C(=O)N[C@@H](CCCCN)C(=O)N[C@@H](CCCCN)C(=O)N[C@@H](CO)C(=O)N[C@@H](CCC(=O)O)C(=O)N[C@@H](CCC(=O)O)C(=O)N[C@@H](CCC(N)=O)C(=O)N[C@@H](CCC(N)=O)C(=O)N[C@@H](CCCCN)C(=O)N[C@@H](CCCCN)C(=O)N[C@@H](CC(N)=O)C(=O)N[C@@H](CCC(=O)O)C(N)=O [MT-SC30EK]
IC50 [1]: 0.8 ± 0.2 nM
CD data (with N36) Tm (°C) [2]: 77.4 °C

CC[C@H](C)[C@H](NC(=O)[C@H](CC(C)C)NC(=O)[C@H](CCC(=O)O)NC(=O)[C@H](CCC(=O)O)NC(=O)[C@@H](NC(=O)[C@H](CCCCN)NC(=O)[C@H](CCCCN)NC(=O)[C@@H](NC(=O)[C@H](Cc1ccc(O)cc1)NC(=O)[C@H](CCC(=O)O)NC(=O)[C@H](CCC(=O)O)NC(=O)[C@@H](NC(=O)[C@H](CCCCN)NC(=O)[C@H](CCCCN)NC(=O)[C@H](CC(=O)O)NC(=O)[C@H](Cc1c[nH]c2ccccc12)NC(=O)[C@H](CCC(=O)O)NC(=O)[C@H](CCC(=O)O)NC(=O)[C@H](Cc1c[nH]c2ccccc12)NC(=O)[C@@H](NC(=O)[C@H](CCSC)NC(C)=O)[C@@H](C)O)[C@@H](C)CC)[C@@H](C)O)[C@@H](C)CC)C(=O)N[C@@H](CCCCN)C(=O)N[C@@H](CCCCN)C(=O)N[C@@H](CO)C(=O)N[C@@H](CCC(=O)O)C(=O)N[C@@H](CCC(=O)O)C(=O)N[C@@H](CCC(N)=O)C(=O)N[C@@H](CCC(N)=O)C(=O)N[C@@H](CCCCN)C(=O)N[C@@H](CCCCN)C(=O)N[C@@H](CC(N)=O)C(=O)N[C@@H](CCC(=O)O)C(=O)N[C@@H](CCCCN)C(N)=O [MT-SC31EK]
IC50 [1]: 0.9 ± 0.4 nM
CD data (with N36) Tm (°C) [2]: 76.7 °C

CC[C@H](C)[C@H](NC(=O)[C@H](CC(C)C)NC(=O)[C@H](CCC(=O)O)NC(=O)[C@H](CCC(=O)O)NC(=O)[C@@H](NC(=O)[C@H](CCCCN)NC(=O)[C@H](CCCCN)NC(=O)[C@@H](NC(=O)[C@H](Cc1ccc(O)cc1)NC(=O)[C@H](CCC(=O)O)NC(=O)[C@H](CCC(=O)O)NC(=O)[C@@H](NC(=O)[C@H](CCCCN)NC(=O)[C@H](CCCCN)NC(=O)[C@H](CC(=O)O)NC(=O)[C@H](Cc1c[nH]c2ccccc12)NC(=O)[C@H](CCC(=O)O)NC(=O)[C@H](CCC(=O)O)NC(=O)[C@H](Cc1c[nH]c2ccccc12)NC(=O)[C@@H](NC(=O)[C@H](CCSC)NC(C)=O)[C@@H](C)O)[C@@H](C)CC)[C@@H](C)O)[C@@H](C)CC)C(=O)N[C@@H](CCCCN)C(=O)N[C@@H](CCCCN)C(=O)N[C@@H](CO)C(=O)N[C@@H](CCC(=O)O)C(=O)N[C@@H](CCC(=O)O)C(=O)N[C@@H](CCC(N)=O)C(=O)N[C@@H](CCC(N)=O)C(=O)N[C@@H](CCCCN)C(=O)N[C@@H](CCCCN)C(=O)N[C@@H](CC(N)=O)C(=O)N[C@@H](CCC(=O)O)C(=O)N[C@@H](CCCCN)C(=O)N[C@@H](CCC(=O)O)C(N)=O [MT-SC32EK]
IC50 [1]: 1.1 ± 0.3 nM
CD data (with N36) Tm (°C) [2]: 78.6 °C

CC[C@H](C)[C@H](NC(=O)[C@H](CC(C)C)NC(=O)[C@H](CCC(=O)O)NC(=O)[C@H](CCC(=O)O)NC(=O)[C@@H](NC(=O)[C@H](CCCCN)NC(=O)[C@H](CCCCN)NC(=O)[C@@H](NC(=O)[C@H](Cc1ccc(O)cc1)NC(=O)[C@H](CCC(=O)O)NC(=O)[C@H](CCC(=O)O)NC(=O)[C@@H](NC(=O)[C@H](CCCCN)NC(=O)[C@H](CCCCN)NC(=O)[C@H](CC(=O)O)NC(=O)[C@H](Cc1c[nH]c2ccccc12)NC(=O)[C@H](CCC(=O)O)NC(=O)[C@H](CCC(=O)O)NC(=O)[C@H](Cc1c[nH]c2ccccc12)NC(=O)[C@@H](NC(=O)[C@H](CCSC)NC(C)=O)[C@@H](C)O)[C@@H](C)CC)[C@@H](C)O)[C@@H](C)CC)C(=O)N[C@@H](CCCCN)C(=O)N[C@@H](CCCCN)C(=O)N[C@@H](CO)C(=O)N[C@@H](CCC(=O)O)C(=O)N[C@@H](CCC(=O)O)C(=O)N[C@@H](CCC(N)=O)C(=O)N[C@@H](CCC(N)=O)C(=O)N[C@@H](CCCCN)C(=O)N[C@@H](CCCCN)C(=O)N[C@@H](CC(N)=O)C(=O)N[C@@H](CCC(=O)O)C(=O)N[C@@H](CCCCN)C(=O)N[C@@H](CCC(=O)O)C(=O)N[C@@H](CC(C)C)C(N)=O [MT-SC33EK]
IC50 [1]: 0.8 ± 0.2 nM
CD data (with N36) Tm (°C) [2]: 84.9 °C
